Measured values taken from patent US20250302929A1, “TUMOR NEOANTIGENIC PEPTIDES” (INSTITUT CURIE, priority 2021, published 2025).

Tested on: CCLE cell lines
Test: MS-based total proteomics, lung tumor-specific JETs in CCLE cell lines (Nusinow et al. 2020)
Set-up: species or system human
Conditions: peptide overlapping the splicing site

Sequence: SSGAQGEYAGLATIR
- Recurrence: 9
